Results deposited as PubChem BioAssay AID504761 (Drosophila RNAi Screening Center, 2011)
In all, the deposit lists about 22,000 reagents; this is an unselected part of those with a known target gene and a result. In the full data, 116 (0.52%) are marked active. 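Calls depend on retest data that are not deposited; infection was ranked per plate without normalising between plates; the unit of the infection score is not given.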 Entries without a mark were called inactive. The numbers tell different reagents against one gene apart. A plus sign joins genes that one reagent is predicted to hit. Not all columns of the deposit are shown. Not stated in the record: the amount of reagent, the time to read-out.

Purpose: 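Fly genes whose silencing reduces dengue virus type 2 infection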 (primary screen)
Cell system: D.Mel-2 cells from Drosophila
Knock-down reagent: long dsRNA against Drosophila genes
Challenge: infection with dengue virus type 2; dose and infection time not stated
Measurement: 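Cells stained for dengue envelope protein and imaged; percent of infected cells per well on duplicate plates, ranked by infection, with stained nuclei counted for cell number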
Reading the numbers: infection score: higher = more virus-infected cells
Hit rule: 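Low infection ranks in the two replicates (chance level up to 0.065) followed by a retest with a 1.5-fold or larger significant decrease, p below 0.05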
Calls: active = confirmed: knock-down lowers infection; inactive = not picked or not confirmed

Which result is listed for Pka-R2 (GeneID 36041) #1?
infection score, replicate 1: 16.2

What is on record for Pka-R2 (GeneID 36041) #2?
infection score, replicate 1: 4.42

For Or45a (GeneID 35958) #1, what does the deposit list?
infection score, replicate 1: 3.55

For Or45a (GeneID 35958) #2, how do the results read?
infection score, replicate 1: 23

For PolZ2 (GeneID 40677), how do the results read?
infection score, replicate 1: 4.13

What is on record for CG18262 (GeneID 31745) #1?
infection score, replicate 1: 1.54

For CG18262 (GeneID 31745) #2, how do the results read?
infection score, replicate 1: 6.56

With CG13299 (GeneID 38724), how do the results read?
infection score, replicate 1: 7.21

With CG34221 (GeneID 5740574), what was measured?
infection score, replicate 1: 14.8

What did the screen give for Lamtor2 + CG30120 #1?
infection score, replicate 1: 1.68

With Lamtor2 + CG30120 #2, what does the deposit list?
infection score, replicate 1: 5.22

Which result is listed for galene (GeneID 38133) #1?
infection score, replicate 1: 1.97

For galene (GeneID 38133) #2, what does the deposit list?
infection score, replicate 1: 3.17

For CG13220 (GeneID 36200), what does the deposit list?
infection score, replicate 1: 9.46
